PubChem BioAssay AID504761 | Drosophila RNAi Screening Center – 2011
In all, the deposit lists about 22,000 reagents; shown is a random part of those with a known target gene and a result. In the full data, 116 (0.52%) are marked active. 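Calls depend on retest data that are not deposited; infection was ranked per plate without normalising between plates; the unit of the infection score is not given.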 Entries without a mark were called inactive. A plus sign joins genes that one reagent is predicted to hit. Further read-outs or replicates are left out here. Reagent sequences are not shown. Not given: the amount of reagent, the time to read-out.

- Aim: 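Insect host genes that dengue virus relies on to spread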 (primary screen)
- Cell system: D.Mel-2 cells from Drosophila
- Reagent: long dsRNA against Drosophila genes
- Treatment: infection with dengue virus type 2; dose and infection time not stated
- Measured: 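Cells stained for dengue envelope protein and imaged; percent of infected cells per well on duplicate plates, ranked by infection, with stained nuclei counted for cell number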
- Reading the numbers: infection score: higher = more virus-infected cells
- Call rule: 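Low infection ranks in the two replicates (chance level up to 0.065) followed by a retest with a 1.5-fold or larger significant decrease, p below 0.05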
- Meaning of the calls: active = confirmed: knock-down lowers infection; inactive = not picked or not confirmed

predicted target	amplicon	infection score, replicate 1	infection score, replicate 2
CG8032	DRSC16365	3.91	3.86
CG8032	DRSC29586		2.29
Nup54	DRSC07282	9.38	11.8
Cdk4	DRSC07358	10.4	6.23
Cdk4	DRSC27263	16.6	22
lsn	DRSC16081	1.51	1.04
lsn	DRSC25700	6.74	4.52
CG32537	DRSC20073	22.6	8.22
CG32537	DRSC23589	11.9	7.69
alien + CG17906	DRSC02641	5.47	6.79
Wdr92	DRSC10187	5.38	6.16
Galt	DRSC03161	5.23	3.39
alt	DRSC15315	10	6.37
alt	DRSC28347	4.95	7.35
CG16704	DRSC00475	2.66	7.49
Dis3l2	DRSC08496	13.6	7.32

Ordered by “infection score, replicate 2” (high to low): 2 of the entries above.
predicted target	amplicon	infection score, replicate 1	infection score, replicate 2
Cdk4	DRSC27263	16.6	22
lsn	DRSC16081	1.51	1.04

The results go on:
predicted target	amplicon	infection score, replicate 1	infection score, replicate 2
side-V	DRSC04189	4.28	3.23
Alp9	DRSC10486	5.8	5.12
CG34448	DRSC26596	3.16	0.36
Gmd	DRSC03119	10.7	4.66
Gmd	DRSC27937	15.3	7.9
CG10184	DRSC14204	8.62	9.47
CG31800	DRSC22525	1.69	1.89
CG31800	DRSC29916	16.7	12.2
